Laboratory results published in patent EP3144007A1 (priority 2015, dated 2017).

Protein sequences, listed by entry. Tags and fused reporters are not part of them. Residues count along the entry.
UniProt P04958, 865-1315 limits assumed: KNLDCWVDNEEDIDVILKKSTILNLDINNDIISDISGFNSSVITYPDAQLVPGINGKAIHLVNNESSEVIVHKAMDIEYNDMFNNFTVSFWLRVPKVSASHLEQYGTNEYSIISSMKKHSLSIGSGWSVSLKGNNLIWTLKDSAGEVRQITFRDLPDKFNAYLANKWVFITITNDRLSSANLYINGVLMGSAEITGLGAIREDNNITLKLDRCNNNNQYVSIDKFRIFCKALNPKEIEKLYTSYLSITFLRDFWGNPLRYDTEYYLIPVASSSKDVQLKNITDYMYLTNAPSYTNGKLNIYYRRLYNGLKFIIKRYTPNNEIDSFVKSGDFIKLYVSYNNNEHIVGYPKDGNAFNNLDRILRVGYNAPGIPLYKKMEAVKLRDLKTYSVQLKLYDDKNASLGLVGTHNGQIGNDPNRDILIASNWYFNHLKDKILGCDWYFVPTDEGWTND

Target: Hc-TeNT (Clostridium tetani, UniProt P04958)
Assay: Dot-blot assay: binding of recombinant Hc-TeNT fragment to peptide attached to a nitrocellulose membrane
Settings: 10 µg and 20 µg of peptide on nitrocellulose; Hc-TeNT 10 ng/ml; anti poly-Histidine detection

SMILES: CSCC[C@@H]1NC(=O)CNC(=O)[C@H](CC(N)=O)NC(=O)[C@H](CC(N)=O)NC(=O)[C@H](CCSC)NC(=O)[C@H](Cc2c[nH]cn2)NC(=O)[C@H]([C@@H](C)O)NC(=O)[C@@H]2CCCN2C(=O)[C@H](CC(N)=O)NC(=O)[C@H](CC(=O)O)NC(=O)[C@H](CC(C)C)NC(=O)[C@H](CCC(N)=O)NC(=O)[C@H](CC(C)C)NC(=O)[C@@H](NC(=O)CN)CSSC[C@@H](C(=O)N[C@@H](CC(N)=O)C(=O)N[C@@H](CC(N)=O)C(=O)NCC(=O)O)NC(=O)[C@H](Cc2c[nH]cn2)NC(=O)[C@H]([C@@H](C)O)NC(=O)[C@@H]2CCCN2C(=O)[C@H](CC(N)=O)NC(=O)[C@H](CC(=O)O)NC(=O)[C@H](CC(C)C)NC(=O)[C@H](CCC(N)=O)NC(=O)[C@H](CC(C)C)NC1=O [d5 peptide]
- Hc-TeNT binding to the membrane-attached peptide: able to bind specifically
